Activity calls are given as the source filed them. The calls are words filed in the database; no cut-off is given here.
Tested on: B16-F10
Test: Antitumor activity against mouse B16F10 cells […] in C57BL/6 mouse assessed as reduction of tumor size at 100 ug administered as intratumorally for 3 days
Type: functional, cell-based

SMILES: O=C(O)c1ccc(N(CCCl)CCCl)cc1
- Activity: Active
